{"source": "PubChem BioAssay AID1259414 (Drosophila RNAi Screening Center, 2018)", "screen": "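Host factors increasing or decreasing Wolbachia levels in cultured fly cells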 (primary screen)", "system": "Drosophila JW18 cells infected with Wolbachia", "reagents": "long dsRNA against Drosophila genes, 0.25 µg dsRNA per well of a 384-well plate", "time to read-out": "5 days", "treatment": "cells persistently infected with Wolbachia before knock-down; no added drug", "measurement": "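Automated imaging of bacterial rRNA staining divided by host cell count, reported as plate-normalised robust z-score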", "scale": "Wolbachia per cell robust z: higher = more Wolbachia per host cell than the plate typical", "active means": "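Hit when robust z is 1.5 or more, or -1.5 or less, in at least two of three replicates; excludes dsRNAs with several or no targets, genes not expressed in JW18 and well A1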", "note": "In all, the deposit lists about 24,000 reagents; this is an unselected part of those with a known target gene and a result. In the full data, about 1,210 (5%) were called active. 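Inactive calls also include excluded dsRNAs with several or no targets, genes unexpressed in JW18, and well A1, regardless of score.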"}
{"predicted target": "DNAlig1 (DNA ligase 1)", "dsRNA": "DRSC04518", "Wolbachia per cell robust z, rep 1": 0.0209, "Wolbachia per cell robust z, rep 2": -4.43, "Wolbachia per cell robust z, rep 3": -0.0187, "Outcome": "inactive"}
{"predicted target": "Ncoa6 (Nuclear receptor coactivator 6)", "dsRNA": "DRSC23060", "Wolbachia per cell robust z, rep 1": 0.86, "Wolbachia per cell robust z, rep 2": 1.34, "Wolbachia per cell robust z, rep 3": 0.289, "Outcome": "inactive"}
{"predicted target": "Ncoa6 (Nuclear receptor coactivator 6)", "dsRNA": "DRSC25819", "Wolbachia per cell robust z, rep 1": -0.535, "Wolbachia per cell robust z, rep 2": 1.39, "Wolbachia per cell robust z, rep 3": 0.879, "Outcome": "inactive"}
{"predicted target": "cmet (CENP-meta)", "dsRNA": "DRSC03511", "Wolbachia per cell robust z, rep 1": -0.96, "Wolbachia per cell robust z, rep 2": -3.42, "Wolbachia per cell robust z, rep 3": 0.347, "Outcome": "inactive"}
{"predicted target": "CG10803", "dsRNA": "DRSC17763", "Wolbachia per cell robust z, rep 1": -2.41, "Wolbachia per cell robust z, rep 2": -0.436, "Wolbachia per cell robust z, rep 3": 0.238, "Outcome": "inactive"}
{"predicted target": "CG10803", "dsRNA": "DRSC26282", "Wolbachia per cell robust z, rep 1": -1.35, "Wolbachia per cell robust z, rep 2": 0.571, "Wolbachia per cell robust z, rep 3": 0.74, "Outcome": "inactive"}
{"predicted target": "CG33003", "dsRNA": "DRSC22419", "Wolbachia per cell robust z, rep 1": 0.813, "Wolbachia per cell robust z, rep 2": -0.0041, "Wolbachia per cell robust z, rep 3": 1.16, "Outcome": "inactive"}
{"predicted target": "CG33003", "dsRNA": "DRSC26346", "Wolbachia per cell robust z, rep 1": -8.18, "Wolbachia per cell robust z, rep 2": 0.498, "Wolbachia per cell robust z, rep 3": -0.3, "Outcome": "inactive"}
{"predicted target": "CG3199", "dsRNA": "DRSC15467", "Wolbachia per cell robust z, rep 1": 0.636, "Wolbachia per cell robust z, rep 2": 0.354, "Wolbachia per cell robust z, rep 3": 0.015, "Outcome": "inactive"}
{"predicted target": "CG3199", "dsRNA": "DRSC30060", "Wolbachia per cell robust z, rep 1": 0.305, "Wolbachia per cell robust z, rep 2": 0.108, "Wolbachia per cell robust z, rep 3": 1.12, "Outcome": "inactive"}
{"predicted target": "CG15021", "dsRNA": "DRSC08475", "Wolbachia per cell robust z, rep 1": 0.876, "Wolbachia per cell robust z, rep 2": 0.345, "Wolbachia per cell robust z, rep 3": 0.641, "Outcome": "inactive"}
{"predicted target": "CG15021", "dsRNA": "DRSC25139", "Wolbachia per cell robust z, rep 1": -2.94, "Wolbachia per cell robust z, rep 2": 0.78, "Wolbachia per cell robust z, rep 3": 0.747, "Outcome": "inactive"}

2 neighbouring records from above:
{"predicted target": "CG33003", "dsRNA": "DRSC22419", "Wolbachia per cell robust z, rep 1": 0.813, "Wolbachia per cell robust z, rep 2": -0.0041, "Wolbachia per cell robust z, rep 3": 1.16, "Outcome": "inactive"}
{"predicted target": "CG33003", "dsRNA": "DRSC26346", "Wolbachia per cell robust z, rep 1": -8.18, "Wolbachia per cell robust z, rep 2": 0.498, "Wolbachia per cell robust z, rep 3": -0.3, "Outcome": "inactive"}
